## Screening data, single-dose tests

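Whole-cell growth test on Mycobacterium tuberculosis, read after 3 days in glucose-containing 7H9 medium; the read-out is not stated. Concentration: 500 µM. Higher reads as more growth inhibition (inferred: compounds with an IC50 in retests scored well above the rest). Size under these conditions: about 18,000 compounds, about 1,400 of them at 50% or above in at least one test.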

Values are the deposited “Percent Effect”, in %.
The record does not define 0% and 100%; most values in the screen are far below 50% and negative numbers occur (in some assays of this library far below -100).
This is part of a subset picked to be rich in strong results.

- COc1cccc(C(=O)NCc2ccoc2C)n1 : 55.27%
- O=C1C(N2CCNCC2)CCCN1C1CCOCC1 (stereo not given) : -2.4%
- CN(C)C(=O)CSc1nnc(C(F)(F)F)s1 : 80.33%
- CC(C)C(=O)NCc1ccnc(N2CCOCC2)c1 : 1.835%
- CNC(=O)CN(C)c1nccc(C2CCCC2)n1 : 30.52%
- Cc1ccc(C(=O)N(C)C)cc1F : 0.2644%
- OC1CCCn2ccnc21 (stereo not given) : 8.582%
- COc1ccncc1NCc1cccc(C#N)c1 : 23.97%
- OCc1noc(-c2ccccc2)n1 : 18.56%
- CN(C)c1ccc(C(=O)NC[C@@H]2CCCO2)cn1 : 20.64%
- NC(=O)c1ccsc1NC(=O)CCN1CCCCC1 : 53.99%
- CCc1ccccc1N1CC(C(=O)NC)CC1=O (stereo not given) : 6.241%
- CNCC(=O)NCC1CCN(c2cnn(C)c(=O)c2)C1 (stereo not given) : 3.457%
- CC(N)c1nnc2n1CCCC2 (stereo not given) : 6.389%
- CNCC(=O)NC1CCN(Cc2ccc(Br)cc2)CC1 : 59.03%
- O=C(CSCCO)Nc1ncc(-c2ccccc2)s1 : 71.05%
- NCC1(O)Cc2ccccc2C1 : -2.908%
- CC(C)N1CCN(CCCSc2nnnn2C)CC1 : -2.191%
- Cc1cccc(C)c1NC(=O)C1CCS(=O)(=O)C1 (stereo not given) : -7.18%
- CC(C)Oc1ccc(NC(=O)NCC(=O)N(C)C)cc1 : -13.15%
- COC(=O)c1ccn2cncc2c1 : -13.24%
- OCCC1CCCCN1Cc1cccnc1 (stereo not given) : -51.92%
- O=C(NCc1nccs1)c1csc(NC2CC2)n1 : 49.26%
- CCNC(=O)[C@@H]1C[C@H](N)CN1C(=O)C1(COC)CCC1 : 3.839%
- COc1cccc(SCC(=O)N[C@@H]2CC[C@@H](N)C2)c1 : 36.67%
- CCN(CC)C(=O)CCC1CCNCC1 : -0.8825%
- CN(C)C(=O)C(C)(N)C(F)(F)F (stereo not given) : 1.186%
- O=C(Nc1ccncc1)N(CCO)CC1CC1 : 19.86%
- CC(CO)(CO)NCc1cc2ccccc2s1 : 5.287%
- CSc1cncc(NCCC(=O)N2CCCC2)n1 : 62.57%
- COc1cc(C)cc(C(=O)NCc2ncc[nH]2)c1O : 41.51%
- CNc1nc(NCC(C)CO)ncc1Br (stereo not given) : 2.915%
- CCc1noc(Cn2ccc3ncccc3c2=O)n1 : 19.38%
- COc1ccc(CSCC(N)=O)cc1Br : 66.31%
- CC(=O)NCc1ccc(C(=O)CSc2nccn2C)s1 : -6.631%
- NCC(CO)Cc1ccc(Cl)cc1 (stereo not given) : 48.45%
- NC(=O)CN(C(=O)c1cccc(Cl)c1)c1ccccc1 : 26.18%
- CCN1CCN(C(=O)CN2CCCCCCC2=O)CC1 : 12.23%
- CCN(C(=O)Cc1c[nH]c(=O)[nH]c1=O)[C@H]1COC[C@@H]1O : 8.548%
- CC(c1cccs1)n1nccc1N (stereo not given) : 9.581%
- O=C(Cn1cccnc1=O)N1CCCC1c1cccs1 (stereo not given) : -5.427%
- N[C@@H]1C[C@H]1c1c(F)cccc1F : 55.68%
- COC(=O)c1cc(CNC(=O)CC(C)C)ccc1OC : 41.04%
- Cc1n[nH]c(C)c1NC(=O)NCc1ccco1 : 8.052%
- CN(C)S(=O)(=O)c1ccc(N)nc1 : 1.241%
- CC(=O)c1ccc(S(C)(=O)=O)c(N(C)CCC2CC2)c1 : -7.17%
- CNC(=O)[C@@H](C)Nc1nc(-c2ccccc2)ns1 : 34.71%
- COC(=O)N1CC(NC(=O)c2cc(C(C)=O)c[nH]2)C1 : 12.72%
- O=c1oc2ccccc2n1CC1CCOC1 (stereo not given) : 22.1%
- NC1CCN(c2ncc(C(F)(F)F)cc2Cl)C1 (stereo not given) : 84.57%
- O=C(CC1CCS(=O)(=O)C1)NCCc1ccc(F)cc1 (stereo not given) : 13.6%
- O=C(NCc1[nH]ncc1Br)Nc1nc2c(s1)COCC2 : 69.48%
- Cc1ccc(F)cc1S(=O)(=O)N1C[C@H](C2CC2)[C@@H](N)C1 : 57.87%
- CCOC1CCN(C(C(N)=O)c2ccccc2)CC1 (stereo not given) : -0.07924%
- CCN(C(=O)c1cc(F)ccc1OC)[C@H]1COC[C@@H]1O : 21.72%
- CS(=N)(=O)c1ccccc1Br (stereo not given) : 10.7%
- O=C1NCCNC1c1ccccc1Cl (stereo not given) : 3.9%

4 of the entries, repeated:

{"compound": "CN(C)S(=O)(=O)c1ccc(N)nc1", "percent effect": 1.241}
{"compound": "CCN(C(=O)c1cc(F)ccc1OC)[C@H]1COC[C@@H]1O", "percent effect": 21.72}
{"compound": "NC(=O)c1ccsc1NC(=O)CCN1CCCCC1", "percent effect": 53.99}
{"compound": "CC(c1cccs1)n1nccc1N", "stereo": "stereo not given", "percent effect": 9.581}

Measurements from “University of Dundee, Small-Polar-MMV Screening Library” (2021), ChEMBL document CHEMBL3988442.